Experimental data taken from ChEMBL document CHEMBL1129997 (J Med Chem, 1997).

Biological target: Modulator of drug activity A (Escherichia coli O157:H7) (UniProt Q8X6S1)
Test: IC50 ratio for NR-positive and NR-negative cell lines
Type: functional

Question: `O=[N+]([O-])c1cnc(N(CCCl)CCCl)s1` was tested. Which Ratio did it give?
Answer: > 5
